Source: US20190359693A1, “Binding molecules directed against influenza hemagglutinin and uses thereof” (Janssen / Centocor, published 2019)

Key:
[1] = target: hemagglutinin (HA) of influenza B/Harbin/7/94 (Yamagata) (influenza B virus); experiment: cell-based or functional assay
[2] = target: hemagglutinin (HA) of influenza B/Lee/40 (Old) (influenza B virus, UniProt P03460 16-584); experiment: cell-based or functional assay
[3] = target: hemagglutinin (HA) of influenza B/Florida/04/06 (Yamagata) (influenza B virus); experiment: cell-based or functional assay
[4] = target: hemagglutinin (HA) of influenza B/Massachusetts/02/12 (Yamagata) (influenza B virus); experiment: cell-based or functional assay
[5] = target: hemagglutinin (HA) of influenza B/Malaysia/2506/04 (Victoria) (influenza B virus); experiment: cell-based or functional assay
[6] = target: hemagglutinin (HA) of influenza A/Vietnam/1194/04 (H5N1) (influenza A virus A/Vietnam/1194/04 …); experiment: cell-based or functional assay
[7] = target: hemagglutinin (HA) of influenza A/Brisbane/10/07 (H3N2) (influenza A virus A/Brisbane/10/07 …); experiment: cell-based or functional assay
[8] = target: hemagglutinin (HA) of influenza A/California/07/09 (H1N1) (influenza A virus A/California/07/09 …); experiment: cell-based or functional assay
[9] = target: hemagglutinin (HA) of influenza A/New Caledonia/20/99 (H1N1) (influenza A virus A/New Caledonia/20/99 …); experiment: cell-based or functional assay
[10] = target: hemagglutinin (HA) of influenza A/Hong Kong/1/68 (H3N2) (influenza A virus A/Hong Kong/1/68 …, UniProt Q91MA7 17-566); experiment: cell-based or functional assay
[11] = target: hemagglutinin (HA) of influenza A/NIBRG/60 (A/mallard/Netherlands/12/00) (H7N3) (influenza A virus …); experiment: cell-based or functional assay
[12] = target: HA of H1N1 A/California/07/2009 (influenza A virus); experiment: cell-based or functional assay
[13] = target: HA of H1N1 A/California/07/2009 (influenza A virus); experiment: cell-based or functional assay; remark: listed apart in the source
[14] = target: HA of H3N2 A/Brisbane/10/2007 (influenza A virus); experiment: AlphaLISA competition vs SD1038
[15] = target: HA of B/Brisbane/60/2008 (Victoria) (influenza B virus); experiment: AlphaLISA competition vs SD1087
[16] = target: HA of B/Florida/04/2006 (Yamagata) (influenza B virus); experiment: AlphaLISA competition vs CR9114
[17] = target: HA of B/Brisbane/60/2008 (Victoria) (influenza B virus); experiment: AlphaLISA competition vs CR9114
[18] = target: HA of B/Brisbane/60/2008 (Victoria) (influenza B virus); experiment: AlphaLISA competition vs SD1084
[19] = target: HA of B/Florida/04/2006 (Yamagata) (influenza B virus); experiment: AlphaLISA competition vs CR8033
[20] = target: HA of B/Brisbane/60/2008 (Victoria) (influenza B virus); experiment: BLI steady state
[21] = target: HA of B/Florida/04/2006 (Yamagata) (influenza B virus); experiment: AlphaLISA competition vs CR8071
[22] = target: HA of B/Brisbane/60/2008 (Victoria) (influenza B virus); experiment: AlphaLISA competition vs CR8071
[23] = target: HA of B/Florida/04/2006 (Yamagata) (influenza B virus); experiment: cell-based or functional assay
[24] = target: HA of B/Brisbane/60/2008 (Victoria) (influenza B virus); experiment: cell-based or functional assay
[25] = target: HA of B/Florida/04/2006 (Yamagata) (influenza B virus); experiment: cell-based or functional assay; remark: listed apart in the source
[26] = target: HA of B/Brisbane/60/2008 (Victoria) (influenza B virus); experiment: cell-based or functional assay; remark: listed apart in the source
[27] = target: hemagglutinin (HA) of influenza virus B/Harbin/7/94 (Yamagata) (influenza B virus); experiment: cell-based or functional assay
[28] = target: hemagglutinin (HA) of influenza virus B/Florida/04/06 (Yamagata) (influenza B virus); experiment: cell-based or functional assay
[29] = target: hemagglutinin (HA) of influenza virus B/Brisbane/60/08 (Victoria) (influenza B virus); experiment: cell-based or functional assay
[30] = target: hemagglutinin (HA) of influenza virus B/Malaysia/2506/04 (Victoria) (influenza B virus); experiment: cell-based or functional assay
[31] = target: recombinant HA of H7N3 A/NIBRG/60 (A/mallard/NL/12/00) (influenza A virus); experiment: biolayer interferometry (Octet), steady-state fit, geometric mean
[32] = target: recombinant HA of H3N2 A/Brisbane/10/2007 (influenza A virus); experiment: as above
[33] = target: recombinant HA of H3N2 A/Wisconsin/67/05 (influenza A virus); experiment: as above

B1: SD1083 (VHH)
VHH: EVQLVESGGGLVQPGGSLRLSCAATGFTLENKAIGWFRQTPGSEREGVLCISKSGSWTYYTDSMRGRFTISRDNAENTVYLQMDSLKPEDTAVYYCATTTAGGGLCWDGTTFSRLASSWGQGTQVTVSS
VNA IC50 [1]: 303 nM
VNA IC50 [2]: 215 nM
VNA IC50 [3]: 290 nM
VNA IC50 [4]: 260 nM
VNA IC50 [5]: 256 nM

B2: SD1084 (VHH)
VHH: EVQLVESGGGLVQPGGSLKLSCAASGFTFSTSWMYWLRQAPGKGLEWVSVINTDGGTYYADSVKDRFTISRDNAKDTLYLQMSSLKSEDTAVYYCAKDWGGPEPTRGQGTQVTVSS
VNA IC50 [1]: 322 nM
VNA IC50 [2]: > 1000 nM
VNA IC50 [3]: 68 nM
VNA IC50 [4]: 35 nM
VNA IC50 [5]: 26 nM

B3: SD1038 (VHH)
VHH: EVQLVESGGGLVQPGGSLRLSCAVSISIFDIYAMDWYRQAPGKQRDLVATSFRDGSTNYADSVKGRFTISRDNAKNTLYLQMNSLKPEDTAVYLCHVSLYRDPLGVAGGMGVYWGKGALVTVSS
VNA IC50 [6]: 15 nM
VNA IC50 [7]: 284 nM
VNA IC50 [8]: 2 nM
VNA IC50 [9]: 7 nM
VNA IC50 [10]: 251 nM

B4: FM1W3 (Fc fusion)
chain: TIFGIRVNTMG
Average neutralization titers [11]: 8 nM

B5: SD1076 (VHH)
VHH: EVQLVESGGGLVQAGGSLTLSCAGSGFAFSIATMGWYRQAPGKQRELVADITSGGSTNYADSVKGRFTISRDNAKNTVYLQMNSLKPEDTAVYYCNADSLATGWRQYSYWGKGTQVTVSS
notes: llama sdAb
VNA titer [12]: 3.1 nM

B6: SD1017 (VHH)
VHH: EVQLVESGGGLVQAGGSLRLSCAASGRTYAMAWFRQAPGKEREFVAHINALGTRAYYSDSVEGRFTISRDNAKNTGYLQMNSLEPEDTAVYVCAAGGQWRAAPVADAAQYDFWGQGTQVTVSS
VNA titer [13]: > 1000 nM

B7: SD1048 (VHH)
VHH: EVQLVESGGGVVQPGGSLRLSCVASGRTSSMYSIGWFRQAPGKEREFVAVIGWYSGRTFYTDSMKGRFTISRDNARNTVYLQMNSLKPEDTAVYYCAAANGPLRLSNQADYWGQGTQVTVSS
VNA titer [13]: > 1000 nM

B8: SD1049 (VHH)
VHH: EVQLVESGGGLVQAGGSLRLSCAASGRTLSLYSVGWFRQAPGKEREFVATIGWNSGRTFYVDSMKGRFTISRDNAKNTVYLQMNDLKVEDTAVYYCAAAKGPLRLSNQADYWGQGTQVTVSS
VNA titer [13]: > 1000 nM

B9: SD1084 (VHH)
VHH: EVQLVESGGGLVQPGGSLKLSCAASGFTFSTSWMYWLRQAPGKGLEWVSVINTDGGTYYADSVKDRFTISRDNAKDTLYLQMSSLKSEDTAVYYCAKDWGGPEPTRGQGTQVTVSS
notes: llama sdAb
pIC50 [14]: < 7
pIC50 [15]: < 7
pIC50 [16]: 8
pIC50 [17]: 7.4
pIC50 [18]: 9.7
pIC50 [19]: 8.5
Kd [20]: 109 nM
pIC50 [21]: < 7
pIC50 [22]: < 7
hemagglutination inhibition titer [23]: 0.42 µg/mL
hemagglutination inhibition titer [24]: 0.07 µg/mL
VNA titer [25]: 68.8 nM
VNA titer [26]: 20.5 nM

B10: SD1083 (VHH)
VHH: EVQLVESGGGLVQPGGSLRLSCAATGFTLENKAIGWFRQTPGSEREGVLCISKSGSWTYYTDSMRGRFTISRDNAENTVYLQMDSLKPEDTAVYYCATTTAGGGLCWDGTTFSRLASSWGQGTQVTVSS
neutralization titer [27]: 259 nM
neutralization titer [28]: 220 nM
neutralization titer [29]: 178 nM
neutralization titer [30]: 294 nM

B11: SD1084 (VHH)
VHH: EVQLVESGGGLVQPGGSLKLSCAASGFTFSTSWMYWLRQAPGKGLEWVSVINTDGGTYYADSVKDRFTISRDNAKDTLYLQMSSLKSEDTAVYYCAKDWGGPEPTRGQGTQVTVSS
neutralization titer [27]: 240 nM
neutralization titer [28]: 68.8 nM
neutralization titer [29]: 20.5 nM
neutralization titer [30]: 34.9 nM

B12: MD1210 (bispecific antibody)
chain: EVQLVESGGGLVQAGGSLKLSCAASGRTYAMGWFRQAPGKEREFVAHINALGTRTYYSDSVKGRFTISRDNAKNTEYLEMNNLKPEDTAVYYCTAQGQWRAAPVAVAAEYEFWGQGTQVTVSSAAAGGGGSGGGGSGGGGSGGGGSGGGGSGGGGSGGGGSEVQLVESGGGLVQPGGSLRLSCAVSISIFDIYAMDWYRQAPGKQRDLVATSFRDGSTNYADSVKGRFTISRDNAKNTLYLQMNSLKPEDTAVYLCHVSLYRDPLGVAGGMGVYWGKGALVTVSS
Kd [31]: 1.2 nM
Kd [32]: 1.7 nM

B13: MD1212 (VHH)
chain: EVQLVESGGGLVQPGGSLRLSCAVSISIFDIYAMDWYRQAPGKQRDLVATSFRDGSTNYADSVKGRFTISRDNAKNTLYLQMNSLKPEDTAVYLCHVSLYRDPLGVAGGMGVYWGKGALVTVSSAAAGGGGSGGGGSGGGGSGGGGSGGGGSGGGGSGGGGSEVQLVESGGGLVQPGGSLRLSCAVSISIFDIYAMDWYRQAPGKQRDLVATSFRDGSTNYADSVKGRFTISRDNAKNTLYLQMNSLKPEDTAVYLCHVSLYRDPLGVAGGMGVYWGKGALVTVSS
Kd [33]: 0.8 nM
Kd [31]: 1.5 nM
Kd [32]: 2.3 nM

B14: MD1211 (bispecific antibody)
chain: EVQLVESGGGLVQPGGSLRLSCAVSISIFDIYAMDWYRQAPGKQRDLVATSFRDGSTNYADSVKGRFTISRDNAKNTLYLQMNSLKPEDTAVYLCHVSLYRDPLGVAGGMGVYWGKGALVTVSSAAAGGGGSGGGGSGGGGSGGGGSGGGGSGGGGSGGGGSEVQLVESGGGLVQAGGSLKLSCAASGRTYAMGWFRQAPGKEREFVAHINALGTRTYYSDSVKGRFTISRDNAKNTEYLEMNNLKPEDTAVYYCTAQGQWRAAPVAVAAEYEFWGQGTQVTVSS
Kd [33]: 0.9 nM
Kd [31]: 2.1 nM
Kd [32]: 1.8 nM

B15: MD1209 (VHH)
chain: EVQLVESGGGLVQAGGSLKLSCAASGRTYAMGWFRQAPGKEREFVAHINALGTRTYYSDSVKGRFTISRDNAKNTEYLEMNNLKPEDTAVYYCTAQGQWRAAPVAVAAEYEFWGQGTQVTVSSAAAGGGGSGGGGSGGGGSGGGGSGGGGSGGGGSGGGGSEVQLVESGGGLVQAGGSLKLSCAASGRTYAMGWFRQAPGKEREFVAHINALGTRTYYSDSVKGRFTISRDNAKNTEYLEMNNLKPEDTAVYYCTAQGQWRAAPVAVAAEYEFWGQGTQVTVSS
Kd [31]: 1.4 nM
Kd [32]: 1.8 nM

Read-outs that look alike come from different tables or passages of the source.
